In assay [1] the target is H1 hemagglutinin (HA) displayed on pH1N1 virus (influenza A virus, pH1N1 (strain not stated for the imaged virus)).
Assay [2] addresses H5 hemagglutinin (HA) displayed on H5N1 virus (influenza A virus, H5N1 (strain not stated for the imaged virus)).

For orientation: stoichiometry N means a count of units in the complex or per binding partner. The substance “H1 hemagglutinin (HA) displayed on pH1N1 virus” displayed a stoichiometry N in assay [1] of 3.
In assay [2], “H5 hemagglutinin (HA) displayed on H5N1 virus” returned a stoichiometry N of 3.

(Values after publication PMC4807363, “Cryo-electron Microscopy Structures of Chimeric Hemagglutinin Displayed on a Universal Influenza Vaccine Candidate” (2016).)
